## HIV-1 LAI Vif substitutions under APOBEC3G selection

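A pool of vif mutants was passaged twice, 72 h each, on SupT1 cells that express APOBEC3G. Each of three replicates was sequenced after round two and set against the merged round-one pool.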

Scanned stretch, residues 12 to 115 of Vif from HIV-1 LAI (a laboratory-adapted subtype B strain):
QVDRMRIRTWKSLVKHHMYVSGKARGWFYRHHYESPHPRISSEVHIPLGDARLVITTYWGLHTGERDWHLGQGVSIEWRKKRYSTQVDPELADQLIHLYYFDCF

Scale: log2 enrichment, wild type = 0; negative values mean that the variant was depleted.
A change reads original residue, position, new residue.
The median of three replicates is given.
Input reads are the counts in the merged round-one pool, before selection.

change,input reads,median log2 enrichment
R77K,453,-2.49
S32I,211,-4.75
F112L,19,-0.52
D78E,767,-0.76
E101R,82,-0.50
G84R,713,-0.70
P58I,37,0.67
K91F,597,-2.78
Q105Y,413,-1.06
G75R,546,-2.55
S86E,24,1.51
S95N,50,1.24
L81T,316,-1.86
I57G,1698,-1.01
P58Y,395,-5.17
L59P,434,-1.18
E101A,528,-2.11
P47C,741,-2.80
V55P,82,0.04
S46K,460,-3.22
Y40H,6440,-1.90
K92H,29,1.84
E45D,517,-0.86
G82H,33,-0.56
L102I,187,-3.33
S52P,529,-3.60
S23C,416,-2.44
Y111C,335,-1.34
M16I,102,0.61
H73D,42,0.47
F115C,348,-2.34
T67N,430,-0.68
A35P,161,-0.88
A62Y,652,-2.08
A35Q,604,-1.86
E54S,40,1.00
P49W,116,1.89
Q83L,138,-0.21
G84C,21,1.20
H80N,28,2.95
H48S,481,-1.78
Y44H,943,-0.37
R19I,308,-1.37
R77T,491,-2.06
R36E,74,-0.75
V98A,329,-3.39
H80Y,752,-0.19
H43W,418,-1.08
A35T,892,-2.22
D61Y,469,-2.45
V65N,497,-3.04
H108A,57,-2.88
M29V,79,-0.92
I107L,21,1.05
D61R,810,-1.38
E101N,1891,-1.59
E54K,256,-3.29
C114W,75,-0.13
W79V,353,-0.62
V85N,429,-3.78
R77W,520,-2.72
I51P,433,-3.12
T67S,285,1.20
P100S,20,0.61
Q12E,481,-2.18
I66N,1231,-0.64
D99N,333,-1.96
C114E,56,0.27
K26H,810,-1.56
V55H,348,-2.10
T67E,849,-2.05
L72Q,453,-2.27
M29Q,135,1.84
I57D,695,-1.71
Q83H,159,-0.41
R17S,68,-0.65

The last 6 entries again:

T67E (input reads 849) read -2.05.
L72Q (input reads 453) read -2.27.
M29Q (input reads 135) read 1.84.
I57D (input reads 695) read -1.71.
Q83H (input reads 159) read -0.41.
R17S (input reads 68) read -0.65.

Some changes are missing from the data or left out.
The scan is noisy: the rank correlation of replicates is about 0.4 to 0.65, and variants with under about 50 input reads tend to read too high.
Positive scores are uncertain; some enriched variants did not exclude APOBEC3G in a separate test.

Reference: Langley et al. 2025, preprint, doi:10.1101/2025.10.20.683452.